Measured values from several laboratories, pooled; numbers as filed in NIAID ChemDB.

All rows: growth or infection tests

Zones are inhibition diameters on agar. A number after MIC or MFC names an inhibition level or a share of isolates. Inhibition is in % at the dose shown (toxicity tests: loss of growth or viability). An empty or dashed field is not shown. Conditions beyond the fields shown may differ between rows.

SMILES	strain	organism	tested at	read-out	read by	result
O=C1N[C@H]2C=C[C@@H]1C2	AM211	Aspergillus glaucus	-	MIC	-	282.4 µg/mL
COc1cccc(N=C(C)c2cc(C(C)=Nc3cccc(OC)c3)c(O)cc2O)c1	MTCC 1323	Aspergillus clavatus	-	MIC	broth dilution	250 µg/mL
CCCCN1C(=O)C2C=CC1C2	AM211	Aspergillus glaucus	-	MIC	-	226.9 µg/mL
CC(C)c1cc2c(c(O)c1O)[C@@]1(C(=O)O)CCCC(C)(C)C1CC2	-	Aspergillus tubingensis	200 µg/mL	zone	agar diffusion	0 mm
CC(=O)c1ccccc1O	-	Aspergillus flavus	-	MIC50	agar	142 µg/mL
CC(=O)OC[C@H]1O[C@@H](n2nc(-c3cccnc3)n(N)c2=S)[C@H](OC(C)=O)[C@@H](OC(C)=O)[C@@H]1OC(C)=O	-	Aspergillus fumigatus	1 mg/mL	zone	agar diffusion / agar	0 mm
C(/C=C/c1ccccc1)=NCCNCCN=C/C=C/c1ccccc1.[I][Hg][I]	-	Aspergillus niger	10000 µg/mL	zone	agar diffusion	31 mm
COc1c(O)cc2oc(-c3ccc(O)cc3)cc(=O)c2c1O	-	Aspergillus tubingensis	400 µg/mL	zone	agar diffusion	0 mm
Fc1ccc(-c2nn(-c3ccccc3)cc2C2=NNC(c3ccc(Br)cc3)C2)cc1	MTCC 1323	Aspergillus clavatus	-	MIC99	-	50 µg/mL
O=C1C=C(NCCN2CCOCC2)C(=O)c2ccccc21	MTCC 4893	Aspergillus ochraceus	-	MIC100	broth dilution	125 µg/mL
CCN1CCN(c2nc(Cl)nc(NC3CC3)n2)CC1	MTCC 1323	Aspergillus clavatus	-	MIC	agar	200 µg/mL
OC(Cn1cncn1)(Cn1cncn1)c1ccc(F)cc1F	NFI 0239	Aspergillus fumigatus	-	MFC	-	>128 µg/mL
Cc1ccc(N2NOC(=O)C2S(=O)(=O)Nc2nc3ccc(C)cc3s2)cc1	MTCC323	Aspergillus clavatus	250 µg/mL	zone	agar diffusion	21 mm
C=CCc1ccc(O)c(OC)c1	IOA-3	Aspergillus niger	-	MFC	broth dilution	320 µg/mL
CCCCC1(CCCC)OC(=O)C2CC=CCC21	AM211	Aspergillus glaucus	-	MIC	-	>350 µg/mL
CC1CC(C)CN(c2nc(NCCNc3ncnc4c(Br)cc(Br)cc34)nc(NC3CC3)n2)C1	MTCC 1323	Aspergillus clavatus	-	MIC	agar	100 µg/mL
O=C/C=C/c1ccccc1	UAB680	Aspergillus terreus	-	MIC	agar	500 µM
O=c1oc2ccccc2c2nc3c(cc12)CCc1ccccc1-3	MTCC 282	Aspergillus nidulans	1 mg/mL	zone	-	18 mm
Oc1cc(O)cc(O)c1	-	Aspergillus flavus	-	MIC50	agar	>1000 µg/mL
COc1ccc(Cn2nc(C3CC3)cc2NC(=O)c2cccc(C(C)(C)C)c2)cc1	-	Aspergillus ochraceus	-	MIC	-	34 µg/mL
C(/C=C/c1ccccc1)=NCCNCCN=C/C=C/c1ccccc1.[Br][Hg][Br]	-	Aspergillus niger	30000 µg/mL	zone	agar diffusion	26 mm
C[C@@H]1[C@H](O)[C@@H](C)/C=C/C=C/CC/C=C/C=C/C=C/C=C/C(O[C@H]2O[C@H](C)[C@@H](O)[C@H](N)[C@@H]2O)CC2O[C@](O)(CC(O)C(O)CCC(O)CC(O)CC(O)CC(=O)O[C@H]1C)CC(O)C2C(=O)O	-	Aspergillus ochraceus	-	MIC	-	39 µg/mL
COc1ccccc1C=O	UAB698	Aspergillus terreus	-	MIC	agar	2500 µM
Cc1nc(Nc2ccccc2)nc(C)c1Br	-	Aspergillus niger	100 µg/mL	zone	-	2.5 mm
Cc1ccc(C(C)C)cc1O	-	Aspergillus flavus	-	MIC50	agar	57 µg/mL
O=C1C=C(N2CCOCC2)C(=O)c2ccccc21	MTCC 4893	Aspergillus ochraceus	-	MIC100	broth dilution	125 µg/mL
CCCCC1OC(=O)C2CC=CCC12	AM211	Aspergillus glaucus	-	MIC	-	>350 µg/mL
CC1=C(Cl)C(O)=CC(=O)C12Oc1cc(O)c(Cl)c(C)c1C2=O	MTCC 1323	Aspergillus clavatus	-	MIC	broth dilution	100 µg/mL
Oc1cc(O)c2c(c1)O[C@H](c1ccc(O)c(O)c1)[C@@H](O)C2	-	Aspergillus niger	1000 µg/mL	inhibition	-	78%
O=C(O)c1ccccc1O	-	Aspergillus flavus	-	MIC50	agar	369 µg/mL
Clc1cccc(N2CCN(c3nc(NCCNc4ncnc5c(Br)cc(Br)cc45)nc(NC4CC4)n3)CC2)c1	MTCC 1323	Aspergillus clavatus	-	MIC	agar	100 µg/mL
C[C@H]1[C@H](O)[C@@H](C)/C=C/C=C/C=C/C=C/C=C/C=C/C=C/[C@H](O[C@@H]2O[C@H](C)[C@@H](O)[C@H](N)[C@@H]2O)C[C@@H]2O[C@](O)(C[C@@H](O)C[C@@H](O)CC[C@H](O)[C@@H](O)C[C@@H](O)CC(=O)O[C@H]1C)C[C@H](O)[C@H]2C(=O)O	AB16.4	Aspergillus fumigatus	1 µg/mL	inhibition	broth dilution	0%
COc1ccccc1O	-	Aspergillus flavus	-	MIC100	agar	>1000 µg/mL
Cc1ccc(N2NOC(=O)C2S(=O)(=O)Nc2nc(-c3ccc([N+](=O)[O-])cc3)cs2)cc1	MTCC323	Aspergillus clavatus	250 µg/mL	zone	agar diffusion	18 mm
[Al]#[P]	-	Aspergillus ochraceus	-	MFC	agar	4.5 µg/mL
OC(Cn1cncn1)(Cn1cncn1)c1ccc(F)cc1F	CCAM 080006	Aspergillus oryzae	-	MIC100	broth dilution	1.25 µg/mL
Cc1ccc(N2NOC(=O)C2S(=O)(=O)Nc2ccc(-n3c(-c4ccc([N+](=O)[O-])cc4)nc4ccccc4c3=O)cc2)cc1	MTCC323	Aspergillus clavatus	250 µg/mL	zone	agar diffusion	23 mm
CCCNC(=O)n1[se]c2ccccc2c1=O	-	Aspergillus niger	-	MIC	agar	1 µg/mL
C[C@@H]1[C@H](O)[C@@H](C)/C=C/C=C/CC/C=C/C=C/C=C/C=C/C(O[C@H]2O[C@H](C)[C@@H](O)[C@H](N)[C@@H]2O)CC2O[C@](O)(CC(O)C(O)CCC(O)CC(O)CC(O)CC(=O)O[C@H]1C)CC(O)C2C(=O)O	MTCC 2797	Aspergillus parasiticus	-	MIC100	broth dilution	250 µg/mL
O=c1[nH]cnc2c1ncn2[C@H]1CC[C@@H](CO)O1	MTCC 1323	Aspergillus clavatus	-	MIC	agar	200 µg/mL
CCC(C)n1ncn(-c2ccc(N3CCN(c4ccc(OC[C@H]5CO[C@](Cn6cncn6)(c6ccc(Cl)cc6Cl)O5)cc4)CC3)cc2)c1=O	NFI 4001	Aspergillus fumigatus	-	MFC	-	>4 µg/mL
CCC(C)n1ncn(-c2ccc(N3CCN(c4ccc(OC[C@H]5CO[C@](Cn6cncn6)(c6ccc(Cl)cc6Cl)O5)cc4)CC3)cc2)c1=O	60 isolates	Aspergillus fumigatus	-	MIC90	-	>16 µg/mL
Cc1cc(CBr)nc(Nc2ccccc2)n1	-	Aspergillus niger	100 µg/mL	zone	-	2 mm
CCCn1[se]c2ccccc2c1=O	-	Aspergillus niger	-	MIC	agar	15 µg/mL
CNC1=CC(=O)c2ccccc2C1=O	MTCC 2797	Aspergillus parasiticus	-	MIC100	broth dilution	125 µg/mL
CN=C(N)NCCC/C=C/CCCC(C)CC(C)C1OC(=O)C(C)C(O)/C=C/C(C)C(O)CC(O)C(C)C(O)CCC(C)C(O)CC2(O)OC(CC(OC(=O)CC(=O)O)CC(O)CC(O)C(C)C(O)/C=C/C=C/C1C)CC(O)C2O	-	Aspergillus oryzae	-	MIC	-	8 µg/mL
O=c1c2ccccc2[se]n1CCO	-	Aspergillus niger	-	MIC	agar	242 µg/mL
O=C1C(=O)c2ccccc2-c2ccccc21	KACC 40071	Aspergillus clavatus	-	MIC	visual reading	20 µg/mL
COc1ccc(Cn2nc(C3CC3)cc2NC(=O)c2ccc(Cl)cc2)cc1	-	Aspergillus ochraceus	-	MIC	-	32 µg/mL
COc1ccc(N2CCN(c3nc(Cl)nc(NC4CC4)n3)CC2)cc1	MTCC 1323	Aspergillus clavatus	-	MIC	agar	50 µg/mL
COc1ccc(OC)c(C=O)c1	UAB673	Aspergillus terreus	-	MIC	agar	1500 µM
Brc1cc(Br)c2ncnc(NCCNc3nc(NC4CC4)nc(N4CCN(c5ccccc5)CC4)n3)c2c1	MTCC 1323	Aspergillus clavatus	-	MIC	agar	100 µg/mL
O=C(Nc1ccccc1)n1[se]c2ccccc2c1=O	-	Aspergillus niger	-	MIC	agar	127 µg/mL
Cc1nc(Nc2ccccc2)nc(C)c1C#N	-	Aspergillus niger	100 µg/mL	zone	-	1.9 mm

7 of the rows above, restated:

{"SMILES": "COc1ccc(Cn2nc(C3CC3)cc2NC(=O)c2ccc(Cl)cc2)cc1", "organism": "Aspergillus ochraceus", "read-out": "MIC", "result": "32 µg/mL"}
{"SMILES": "Fc1ccc(-c2nn(-c3ccccc3)cc2C2=NNC(c3ccc(Br)cc3)C2)cc1", "strain": "MTCC 1323", "organism": "Aspergillus clavatus", "read-out": "MIC99", "result": "50 µg/mL"}
{"SMILES": "CC(=O)c1ccccc1O", "organism": "Aspergillus flavus", "read-out": "MIC50", "read by": "agar", "result": "142 µg/mL"}
{"SMILES": "Cc1ccc(N2NOC(=O)C2S(=O)(=O)Nc2nc3ccc(C)cc3s2)cc1", "strain": "MTCC323", "organism": "Aspergillus clavatus", "tested at": "250 µg/mL", "read-out": "zone", "read by": "agar diffusion", "result": "21 mm"}
{"SMILES": "CCN1CCN(c2nc(Cl)nc(NC3CC3)n2)CC1", "strain": "MTCC 1323", "organism": "Aspergillus clavatus", "read-out": "MIC", "read by": "agar", "result": "200 µg/mL"}
{"SMILES": "Brc1cc(Br)c2ncnc(NCCNc3nc(NC4CC4)nc(N4CCN(c5ccccc5)CC4)n3)c2c1", "strain": "MTCC 1323", "organism": "Aspergillus clavatus", "read-out": "MIC", "read by": "agar", "result": "100 µg/mL"}
{"SMILES": "C(/C=C/c1ccccc1)=NCCNCCN=C/C=C/c1ccccc1.[Br][Hg][Br]", "organism": "Aspergillus niger", "tested at": "30000 µg/mL", "read-out": "zone", "read by": "agar diffusion", "result": "26 mm"}